Test results as given in US20230285442A1, “USE OF OLIGOCHITOSANS AND DERIVATIVES THEREOF FOR NEUTRALIZING VIRAL AGENTS” (priority 2020, published 2023).

How the values were obtained:
coxsackievirus = assay: NCD1 neutralization (removal) of coxsackievirus from culture supernatant, RNA from supernatant; details: incubated with NCD1 at room temperature for 30 min, centrifuged; RNA from supernatant vs PBS control
RSV = assay: NCD1 neutralization (removal) of RSV from culture supernatant, RNA from supernatant and pellet

Substance: Oligochitosan 10 kDa [NCD1]
- extent of removal of coxsackievirus from the culture supernatant (coxsackievirus): 95-99%
- extent of removal of RSV from the culture supernatant (RSV; incubated with NCD1 at room temperature for 30 min, centrifuged, RNA from supernatant vs PBS control): 95-99%
- total RNA from pellets representing complexes of NCD1 and RSV (RSV; pellet after centrifugation): viral RNA was recovered from the pellet
